{"source": "patent US10358419B2", "about": "“1,3-dipolar [70]fulleropyrrolidinium iodide derivatives” (priority 2015, dated 2019)", "system": "HIV-1NL4-3", "experiment": "HIV-1 NL4-3 replication assay in SupT1 cells (p24 ELISA)", "conditions": "3 μM; 2.1 ng of HIV-1 p24"}
{"substance": "mixture of α, β and γ-N—N-dimethyl[70]fulleropyrrolidinium iodide [Compound 2a]", "values": [{"measurement": "HIV-1 replication at the lowest multiplicity of infection", "value": "replication remains undetected for more than two weeks"}]}
